Results of unrelated studies side by side (data: NIAID ChemDB).

All rows: enzyme or target tests; organism: HIV-1; target: Protease; read-out: IC50

ICn is the concentration giving n% inhibition. Conditions beyond the fields shown may differ between rows.

CC(=O)ONc1ccc(S(=O)(=O)N(CC(C)C)C[C@@H](O)[C@H](Cc2ccccc2)NC(=O)CCn2c(=O)oc3ccccc32)cc1 ; result: 0.005 µM
CNN[C@H](C(=O)NC(=O)[C@H]1N(C(=O)[C@@H](O)[C@H](Cc2ccccc2)NC(=O)[C@@H](NC(=O)[C@H](Cc2ccccc2)NC(C)=O)C(C)C)CSC1(C)C)C(C)C ; result: 0.01 µM
CC[C@@H](C)[C@H](NC(=O)[C@@H]1CCCN1C(=O)[C@@H](O)[C@H](CC1CCCCC1)NC(=O)[C@H](CC(N)=O)NC(=O)c1cccs1)C(=O)N[C@H](C(N)=O)C(C)C ; result: <5 µM
CC(C)[C@H](NC(=O)[C@H](C)NS(=O)(=O)c1ccccc1)C(=O)N[C@@H](Cc1ccccc1)[C@@H](O)[C@H](O)[C@H](Cc1ccccc1)NC(=O)[C@@H](NC(=O)[C@H](C)NS(=O)(=O)c1ccccc1)C(C)C ; result: 0.046 µM
CC(=O)ONc1ccc(S(=O)(=O)N(CC(C)C)C[C@@H](O)[C@H](Cc2ccccc2)NC(=O)CCc2c[nH]c3ccccc23)cc1 ; result: 0.032 µM
CC(C)(C)NC(=O)[C@@H]1CSCN1C(=O)[C@@H](O)[C@H](Cc1ccccc1)NC(=O)[C@H](CS(C)(=O)=O)NC(=O)c1cc2ccccc2o1 ; result: <0.05 µM
CC(C)[C@H](NC(=O)[C@H](C)NC(=O)[C@H](CO)NC(=O)OCc1ccccc1)C(=O)N[C@@H](Cc1ccccc1)[C@@H](O)[C@H](O)[C@H](Cc1ccccc1)NC(=O)[C@@H](NC(=O)[C@H](C)NC(=O)[C@H](CO)NC(=O)OCc1ccccc1)C(C)C ; result: 0.017 µM
Cc1ccccc1CNC(=O)[C@H]1N(C(=O)[C@@H](O)[C@H](Cc2ccccc2)NC(=O)C(C)C(C)C(=O)O)CSC1(C)C ; result: <5 µM
CC[C@H](C)[C@H](NC(=O)[C@@H]1CCCN1C(=O)[C@@H](O)[C@H](Cc1ccccc1)NC(=O)[C@H](CC(N)=O)NC(=O)[C@H](Cc1ccccc1)NC(=O)[C@@H](N)CO)C(=O)N[C@H](C(N)=O)C(C)C ; result: <5 µM
CC(=O)ONc1ccc(S(=O)(=O)N(Cc2ccccc2)C[C@@H](O)[C@H](Cc2ccccc2)NC(=O)[C@H](C(C)C)N2C(=O)c3ccccc3C2=O)cc1 ; result: 0.057 µM
CC(C)(C)NC(=O)[C@H]1N(C(=O)[C@@H](O)[C@H](Cc2ccccc2)NC(=O)[C@H](CC(N)=O)NC(=O)COc2ccccc2-c2ccccc2)CSC1(C)C ; result: <0.05 µM
CC(=O)ONc1ccc(S(=O)(=O)N(CC(C)C)C[C@@H](O)[C@H](Cc2ccccc2)NC(=O)c2ccc(-c3ccc(Cl)cc3)o2)cc1 ; result: 0.045 µM
CC(C)[C@H](NC(=O)[C@H](C)NC(=O)Nc1ccc(OC(F)(F)F)cc1)C(=O)N[C@@H](Cc1ccccc1)C(O)C(O)[C@H](Cc1ccccc1)NC(=O)[C@@H](NC(=O)[C@H](C)NC(=O)Nc1ccc(OC(F)(F)F)cc1)C(C)C ; result: 1.8 µM
CC(C)[C@H](NC(=O)[C@@H]1CCCN1C(=O)[C@@H](O)[C@H](Cc1ccccc1)NC(=O)OC(C)(C)C)C(=O)NCC1CCCCC1 ; result: <1000 µM
CC(=O)ONc1ccc(S(=O)(=O)N(Cc2ccccc2)C[C@@H](O)[C@H](Cc2ccccc2)NC(=O)CN2C(=O)c3ccccc3C2=O)cc1 ; result: 0.045 µM
Cc1ccccc1CNC(=O)[C@H]1N(C(=O)[C@@H](O)[C@H](Cc2ccccc2)NC(=O)C(C)C(C)C(=O)OC[C@@H]2O[C@H](n3cc(C)c(=O)[nH]c3=O)C[C@H]2N=[N+]=[N-])CSC1(C)C ; result: <5 µM
CC(C)(C)NC(=O)[C@@H]1CSCN1C(=O)[C@@H](O)[C@H](Cc1ccccc1)NC(=O)[C@H](CC(N)=O)NC(=O)OCc1ccccc1 ; result: <5 µM
Cc1ccccc1CNC(=O)[C@H]1N(C(=O)[C@@H](O)[C@H](Cc2ccccc2)NC(=O)CC(C)(C)C(=O)OC[C@@H]2O[C@H](n3cc(C)c(=O)[nH]c3=O)C[C@H]2N=[N+]=[N-])CSC1(C)C ; result: <5 µM
CC[C@H](C)[C@H](NC(=O)[C@@H]1CCCN1C(=O)[C@H](O)[C@H](Cc1ccccc1)NC(=O)[C@H](CO)NC(=O)CCc1ccccc1)C(=O)N[C@H](C(N)=O)C(C)C ; result: >5 µM
COc1ccc(S(=O)(=O)N[C@@H](C)C(=O)N[C@H](C(=O)N[C@@H](Cc2ccccc2)C(O)C(O)[C@H](Cc2ccccc2)NC(=O)[C@@H](NC(=O)[C@H](C)NS(=O)(=O)c2ccc(OC)cc2)C(C)C)C(C)C)cc1 ; result: 0.02 µM
Cc1ccccc1CNC(=O)[C@@H]1CSCN1C(=O)[C@@H](O)[C@H](Cc1ccccc1)NC(=O)C(C)C(C)C(=O)OC[C@@H]1O[C@H](n2cc(C)c(=O)[nH]c2=O)C[C@H]1N=[N+]=[N-] ; result: ~5 µM
CC(=O)ONc1ccc(S(=O)(=O)N(CC(C)C)C[C@@H](O)[C@H](Cc2ccccc2)NC(=O)[C@H](C)N2C(=O)c3ccccc3C2=O)cc1 ; result: 0.012 µM
CC(C)(C)NC(=O)[C@H]1N(C(=O)[C@@H](O)[C@H](Cc2ccccc2)NC(=O)[C@H](CSN)NC(=O)COc2cccc3cnccc23)CSC1(C)C ; result: <0.05 µM
CNN[C@H](C(=O)NC(=O)[C@H]1N(C(=O)[C@@H](O)[C@H](Cc2ccccc2)NC(=O)[C@@H](NC(=O)[C@H](Cc2c[nH]c3ccccc23)NC(C)=O)C(C)C)CSC1(C)C)C(C)C ; result: 0.015 µM
CC(C)CN(C[C@@H](O)[C@H](Cc1ccccc1)NC(=O)Cc1c[nH]c2ccccc12)S(=O)(=O)c1ccc(Br)cc1 ; result: 0.016 µM

A second listing of 2 rows from above:

| smiles | result |
|---|---|
| CC(=O)ONc1ccc(S(=O)(=O)N(CC(C)C)C[C@@H](O)[C@H](Cc2ccccc2)NC(=O)c2ccc(-c3ccc(Cl)cc3)o2)cc1 | 0.045 µM |
| CNN[C@H](C(=O)NC(=O)[C@H]1N(C(=O)[C@@H](O)[C@H](Cc2ccccc2)NC(=O)[C@@H](NC(=O)[C@H](Cc2c[nH]c3ccccc23)NC(C)=O)C(C)C)CSC1(C)C)C(C)C | 0.015 µM |